Test results: US20190365774A1, “COMBINATION THERAPY OF BACE-1 INHIBITOR AND ANTI-N3PGLU ABETA ANTIBODY” (Eli Lilly and Company, priority 2016, published 2019)

Target: T1, Aβ […] peptide (Homo sapiens)
T1 construct: flowing pE3-42 Aβ peptide or Aβ 1-40 peptide
Test: Binding by surface plasmon resonance (BIACORE 3000)
Details: 25° C., HBS-EP buffer, peptide 100 nM down to 3.125 nM
Method: The binding affinity and kinetics of an anti-[…] […] The binding affinity is measured by capturing the anti-[…] Aβ antibody via immobilized protein A on a BIACORE® CMS chip, and flowing pE3-42 Aβ peptide or Aβ 1-40 peptide, starting from 100 nM in 2-fold serial dilution down to 3.125 nM. The experiments are carried out at 25° C. in HBS-EP buffer (GE Healthcare BR100669; 10 mM HEPES, 150 mM NaCl, 3 mM EDTA, 0.05% surfactant P20, pH 7.4). For each cycle, the antibody is captured with 5 μL injection of antibody solution at a 10 μg/mL concentration with 10 μL/min. flow rate. The peptide is bound with 250 μL injection at 50 μL/min, and then dissociated for 10 minutes. The chip surface is regenerated with 5 μL injection of glycine buffer at pH 1.5 at 10 μL/mL flow rate. The data is fit to a 1:1 Langmiur binding model to derive kon, koff, and to calculate KD.

Row | Molecule | binding to Aβ 1-40
1 | Antibody I: anti-N3pGlu Abeta antibody, light chain SEQ ID NO: 12 and heavy chain SEQ ID NO: 11 (antibody) heavy: QVQLVQSGAEVKKPGSSVKVSCKASGYTFTDYYINWVRQAPGQGLEWMGWINPGSGNTKYNEKFKGRVTITADESTSTAYMELSSLRSEDTAVYYCTREGETVYWGQGTLVTVSSASTKGPSVFPLAPSSKSTSGGTAALGCLVKDYFPEPVTVSWNSGALTSGVHTFPAVLQSSGLYSLSSVVTVPSSSLGTQTYICNVNHKPSNTKVDKKV[sequence of human IgG1 Fc not given] light: DVVMTQSPLSLPVTLGQPASISCKSSQSLLYSRGKTYLNWFQQRPGQSPRRLIYDVSKLDSGVPDRFSGSGSGTDFTLKISRVEAEDVGVYYCVQGTHYPFTFGQGTKLEIKRTVAAPSVFIFPPSDEQLKSGTASVVCLLNNFYPREAKVQWKVDNALQSGNSQESVTEQDSKDSTYSLSSTLTLSKADYEKHKVYACEVTHQGLSSPVTKSFNRGEC | No appreciable binding
2 | Antibody II: anti-N3pGlu Abeta antibody, light chain SEQ ID NO: 13 and heavy chain SEQ ID NO: 11 (antibody) heavy: QVQLVQSGAEVKKPGSSVKVSCKASGYTFTDYYINWVRQAPGQGLEWMGWINPGSGNTKYNEKFKGRVTITADESTSTAYMELSSLRSEDTAVYYCTREGETVYWGQGTLVTVSSASTKGPSVFPLAPSSKSTSGGTAALGCLVKDYFPEPVTVSWNSGALTSGVHTFPAVLQSSGLYSLSSVVTVPSSSLGTQTYICNVNHKPSNTKVDKKV[sequence of human IgG1 Fc not given] light: DIQMTQSPSTLSASVGDRVTITCKSSQSLLYSRGKTYLNWLQQKPGKAPKLLIYAVSKLDSGVPSRFSGSGSGTEFTLTISSLQPDDFATYYCVQGTHYPFTFGQGTKLEIKRTVAAPSVFIFPPSDEQLKSGTASVVCLLNNFYPREAKVQWKVDNALQSGNSQESVTEQDSKDSTYSLSSTLTLSKADYEKHKVYACEVTHQGLSSPVTKSFNRGEC | No appreciable binding
